Laboratory results as given in publication PMC2718843.

Assays:
[1] = target: gp120 from D1/85.16 cl.23 (HIV-1)
[2] = target: gp120 from CC1/85 cl.7 (HIV-1)

“CD4-IgG2 (PRO542) (from UniProt P01730) (Fc fusion)” showed an IC50 for inhibition of replication of the clonal virus in PBMC (p24 antigen); inhibits gp120-CD4 binding [1] of 8 µg/mL and an IC50 for inhibition of replication of the clonal virus in PBMC (p24 antigen); inhibits gp120-CD4 binding [2] of 0.12 µg/mL.
